# Assay results published in publication PMC6231683.
# What was measured:
# [1] = target: CovR~P (phosphorylated in vitro with acetyl phosphate) (UniProt O87527); assay: EMSA; details: acetyl phosphate, progressively higher molecular weight complexes, high CovR~P needed, 37 C 15 min; recombinant protein; probe letters rebuilt from the primers and the genome
# CovR (unphosphorylated) = CovR (unphosphorylated) (UniProt O87527); assay: EMSA; details: unphosphorylated, low molecular weight complex only, binding unchanged up to 5 uM, 37 C 15 min; recombinant protein; probe letters rebuilt from the primers and the genome
sequence,measurement,setting,value
GACTTGTAAACAACTTACTTACATACATTACCTTGTATACCCTTCTTTTTAATTTTCTTGATTTTCTTGTTATTTCGTGAGGTATTTCGTTAAGTCAGTACGACCTATATTAAGAAAAAGTATACCATAAAATGCCTTTCAAATTCTTTCATTAAAATCCAAAAAACAGTCACGATCACGCATTTATTTCTTTTTGTTCATTATTTATAAAACATATTATAAAACGTGACCCAAAAATTGGATTTTTACCCATTTTTTATGCCATTTATGCTCTTTTTGTTTTAAAAGAGGTCTTATTTTATATTTTTTTTATATTTTTTGAACCTAATTTATCTTTTGTCACTAACTTAATTAGATTTTTTACATGCAATTCAATGTTTTTGACTGATTTCAGTTTTTAAGTTTGACTGTTATGGTACAACCATTAAAAATTCTATCATACTTCAGTCAATTTACACCAACATTAGCTCTTGAAAACGTTTCTACGATGTTTTTTATGAACTGGTTAACTTGTCTTTTTTCGTTGGC (double strand) [mga promoter PCR fragment (~500 bp)],binding result,[1],binds
same,binding result,CovR (unphosphorylated),binds

# For at least one entry, the source does not settle the construct or the ends of the probe.
